Measured values from several laboratories, pooled; numbers as filed in NIAID ChemDB.

Shared fields: growth or infection tests

Two numbers with a dash give a range or band. Percent inhibition refers to the dose given; in toxicity tests it is the harm to the cells. ECn: concentration that inhibits the pathogen or its effect by n%. Conditions beyond the fields shown may differ between rows. An empty or dashed field is not shown. MIC50, MIC90 and the like: level of inhibition, or share of isolates inhibited.

SMILES | measure | organism | cell line | dose | method | strain or isolate | value
COc1ccc(CN2CCCn3c(c4n(c3=O)CCN(C(=O)Nc3ccc(F)c(Cl)c3)C4)C2=O)cc1 | EC50 | Hepatitis B virus | HepG2.2.15 |  | PCR |  | <0.1 µM
Nc1nc2c(ncn2COCCO)c(=O)[nH]1 | inhibition | Varicella zoster virus | HELF | 1 µg/mL | plaque count | KANNO | 82%
Nc1nc2c(ncn2C=C2CC2CO)c(=O)[nH]1 | EC90 | Human cytomegalovirus |  |  | plaque count | VR6189 (ganciclovir-susceptible) | 4.9 µM
OC[C@H]1O[C@@H](n2c(Br)nc3cc(Cl)c(Cl)cc32)[C@H](O)[C@@H]1O | EC95 | Human cytomegalovirus |  |  | virus yield | Recombinant C4 (D341E) | 4.8 µM
CO[C@@H]1CN(Cc2ccccc2)C(=O)c2c3n(c(=O)n2C1)CCN(C(=O)c1ccc(Br)c(Cl)c1)C3 | EC50 | Hepatitis B virus | HepG2.117 |  | PCR |  | 0.5–5 µM
Oc1ccccc1N=Cc1ccc(O)c(O)c1O | MIC99 | Cryptococcus gattii |  |  |  | 23/10993 | 11.3 µg/mL
O=S(=O)([O-])c1ccc2c(NS(=O)(=O)c3ccccc3)cc(S(=O)(=O)[O-])cc2c1 | inhibition | Rhinovirus | Human amnion AV3 cells | 5 µg/mL | cytopathic effect |  | 0%
O=c1[nH]c(=O)n([C@@H]2O[C@H](CO)[C@@H](O)[C@@H]2O)cc1/C=C/Cl | inhibition | Varicella zoster virus | HELF | 0.01 µg/mL | plaque count | HIRAI | 100%
CCOC(=O)/C=C/[C@H](C[C@@H]1CCNC1=O)NC(=O)[C@@H](CC(=O)[C@@H](NC(=O)c1cc(C)on1)C(C)C)Cc1ccc(F)cc1 | EC50 | Rhinovirus | OHIO HELA-I |  | cytopathic effect / visual reading | Isolate 32 | <0.01 µg/mL
Cc1cc(-c2ccc(N=Nc3c(S(=O)(=O)O)cc4cc(S(=O)(=O)O)cc(N)c4c3O)c(C)c2)ccc1N=Nc1c(S(=O)(=O)O)cc2cc(S(=O)(=O)O)cc(N)c2c1O | inhibition | Adenovirus | Human amnion AV3 cells | 50 µg/mL | cytopathic effect | TYPE 3 | 0%
CCOC(=O)c1c(C)nc(NCCCCNc2ccnc3cc(Cl)ccc23)nc1-c1ccccc1 | MIC99 | Cryptococcus neoformans |  |  |  | 27JF | 4 µg/mL
CCO/N=C/c1ccc(OCCC2CCN(c3ccc(Cl)nn3)CC2)cc1 | EC50 | Rhinovirus | KB |  | neutral red | 211-CV13 (ICAM-1 receptor group 9) | 0.015 µM
Nc1ccc2cc(S(=O)(=O)O)cc(S(=O)(=O)O)c2c1 | inhibition | Herpes simplex virus | Human conjunctiva cells | 10 µg/mL | cytopathic effect |  | 0%
CO[C@H]1/C=C/O[C@@]2(C)Oc3c(C)c(O)c4c(O)c(c(/C=N/N5CCN(C6CCCC6)CC5)c(O)c4c3C2=O)NC(=O)/C(C)=C\C=C\[C@H](C)[C@H](O)[C@@H](C)[C@@H](O)[C@@H](C)[C@H](OC(C)=O)[C@@H]1C | MIC | Mycobacterium avium intracellulare |  |  |  | 109 | 0.25 µg/mL
C=CCc1ccc(O)c(OC)c1 | MIC90 | Candida krusei |  |  | turbidity | 139 | 500 µg/mL
COc1ccc(CN2CCCn3c(c4n(c3=O)CCN(C(=O)c3ccc(Br)c(Cl)c3)C4)C2=O)cc1 | EC50 | Hepatitis B virus | HepG2.2.15 |  | PCR |  | 0.1–0.5 µM
O=c1[nH]c(=O)n([C@H]2C[C@H](O)[C@@H](CO)O2)cc1/C=C/Br | inhibition | Varicella zoster virus | HELF | 0.001 µg/mL | plaque count | KANNO | 0%
O=C1C(c2[nH]c3ccc(S(=O)(=O)O)cc3c2O)=Nc2ccc(S(=O)(=O)O)cc21 | inhibition | Rhinovirus | Human amnion AV3 cells | 5 µg/mL | cytopathic effect |  | 0%
CCC(CC)O[C@@H]1C=C(C(=O)O)C[C@H](N)[C@H]1NC(C)=O | EC50 | Influenza A virus | MDCK |  |  | Influenza A/Beijing/32/92 (H3N2) | 0.23 µM
C/C=C\[C@@H]1C[C@H](C(=O)O)N[C@H]1[C@@H](NC(C)=O)[C@](C)(CCC)OC | EC50 | Influenza B virus | MDCK |  | plaque count | Isolate C35C | <0.01 µg/mL
C=C/C(C)=C/[C@@]1(C)SC(=O)C(C)=C1O | MIC | Escherichia coli |  |  |  | UB1005/PBR322 | 150 µM
O=C(NCc1ccccc1)c1c2n(c(=O)n1-c1ccc3c(c1)OCO3)CCN(C(=O)c1ccc(Cl)c(Cl)c1)C2 | EC50 | Hepatitis B virus | HepG2.117 |  | PCR |  | 0.5–5 µM
CN[C@H]1CC[C@@H](c2ccc(Cl)c(Cl)c2)c2ccccc21 | MIC90 | Cryptococcus neoformans |  |  | broth dilution | VPCI 87 | 4 µg/mL
CCc1cn([C@@H]2O[C@H](CO)[C@@H](O)[C@@H]2O)c(=O)[nH]c1=O | inhibition | Varicella zoster virus | HELF | 10 µg/mL | plaque count | Kawaguchi | 0%
Nc1ccc2c(O)cc(S(=O)(=O)[O-])cc2c1S(=O)(=O)[O-] | inhibition | Adenovirus | Human amnion AV3 cells | 10 µg/mL | cytopathic effect | TYPE 3 | 0%
COc1ccc([C@H](C)NC(=O)c2c3n(c(=O)n2-c2ccc(OC4CC4)cc2)C[C@H](C)N(C(=O)c2ccc(Br)c(Cl)c2)C3)cc1 | EC50 | Hepatitis B virus | HepG2.117 |  | PCR |  | <0.1 µM
O=c1[nH]c(=O)n([C@@H]2O[C@H](CO)[C@@H](O)[C@@H]2O)cc1/C=C/Br | inhibition | Varicella zoster virus | HELF | 0.0001 µg/mL | plaque count | Ohtomo | 85%
O=S(=O)([O-])c1cc(S(=O)(=O)[O-])c2cc(NS(=O)(=O)c3ccccc3)ccc2c1 | inhibition | Rhinovirus | Human embryonic lung cells | 5 µg/mL | cytopathic effect |  | 0%
Cn1cc(C(=O)NCc2ccc(Cl)cc2)c(=O)c2cc(CN3CCOCC3)ccc21 | inhibition | Varicella zoster virus | HFF | 2 µM | plaque count | Human zoster isolate | 90%
O=C(c1ccc(Br)c(Cl)c1)N1CCn2c(c3n(c2=O)C[C@H](F)CN(Cc2ccccc2)C3=O)C1 | EC50 | Hepatitis B virus | HepG2.117 |  | PCR |  | 0.1–0.5 µM
Oc1cccc(C=Nc2ccccc2O)c1 | MIC99 | Cryptococcus gattii |  |  |  | ATCC 32608 | 8 µg/mL
Nc1ccc2cc([N+](=O)[O-])cc(S(=O)(=O)[O-])c2c1 | inhibition | Adenovirus | Human embryonic lung cells | 50 µg/mL | cytopathic effect | TYPE 3 | 30%
O=C(NCc1ccccc1)c1c2n(c(=O)n1-c1ncccn1)CCN(C(=O)c1ccc(Cl)c(Cl)c1)C2 | EC50 | Hepatitis B virus | HepG2.117 |  | PCR |  | >5 µM

4 of the rows above, restated:

SMILES	measure	organism	cell line	dose	method	strain or isolate	value
O=c1[nH]c(=O)n([C@@H]2O[C@H](CO)[C@@H](O)[C@@H]2O)cc1/C=C/Cl	inhibition	Varicella zoster virus	HELF	0.01 µg/mL	plaque count	HIRAI	100%
Cn1cc(C(=O)NCc2ccc(Cl)cc2)c(=O)c2cc(CN3CCOCC3)ccc21	inhibition	Varicella zoster virus	HFF	2 µM	plaque count	Human zoster isolate	90%
Nc1nc2c(ncn2COCCO)c(=O)[nH]1	inhibition	Varicella zoster virus	HELF	1 µg/mL	plaque count	KANNO	82%
COc1ccc(CN2CCCn3c(c4n(c3=O)CCN(C(=O)Nc3ccc(F)c(Cl)c3)C4)C2=O)cc1	EC50	Hepatitis B virus	HepG2.2.15		PCR		<0.1 µM